Compound potency records, mixed from different reports. Data source: NIAID ChemDB in PubChem.

Shared fields: cytotoxicity tests; cells: PBMC; read-out: CC50

CCn is the concentration with n% toxicity to the cells. Lines come from different laboratories, so protocols vary.

compound,value
Cc1cn([C@@H]2O[C@H](CO)[C@@H](N=[N+]=[N-])[C@H]2O)c(=O)[nH]c1=O,>100 µM
N#CCn1ccc(=O)n(Cc2cccc3ccccc23)c1=O,270 µM
Nc1nc2c(ncn2COCCO)c(=O)[nH]1,>100 µM
CCOC(=O)CCc1ccccc1O[P@](=O)(N[C@@H](C)C(=O)OC(C)C)OC[C@H]1O[C@@H](n2cnc3c(N)nc(N)nc32)[C@](C)(O)[C@@H]1O,>100 µM
Cc1cn([C@H]2C[C@H](N=[N+]=[N-])[C@@H](CO)O2)c(=O)nc1N,>200 µM
Cc1cc2c(C(C)C)c(O)c(O)c(C=N)c2c(O)c1-c1c(C)cc2c(C(C)C)c(O)c(O)c(C=N)c2c1O,>100 µM
CC(C)OC(=O)CCc1ccccc1OP(=O)(N[C@@H](C)C(=O)OC(C)C)OC[C@H]1O[C@@H](n2cnc3c(N)nc(N)nc32)[C@](C)(O)[C@@H]1O,>100 µM
O=c1[nH]c(=O)n(COCCO)cc1C#Cc1ccccc1,>100 µM
Cc1cn([C@H]2C=C[C@@H](CO)O2)c(=O)[nH]c1=O,70 µM
CCCCN1C(=O)C(CC(C)C)NC(=O)C12CCN(CCCCCCc1ccccc1)CC2,11.7 µM
Cc1cc2c(C(C)C)c(O)c(O)c(C=O)c2c(O)c1-c1c(C)cc2c(C(C)C)c(O)c(O)c(C=O)c2c1O,>100 µM
COC(=O)[C@H](C)NP(=O)(OC[C@H]1O[C@@H](n2cc(C)c(=O)[nH]c2=O)C[C@@H]1N=[N+]=[N-])Oc1ccccc1,>100 µM
Cc1cn([C@H]2CC[C@@H](CO)O2)c(=O)[nH]c1=O,>100 µM
Nc1nc2c(ncn2[C@@H]2CC[C@H](CO)O2)c(=O)[nH]1,>100 µM
CCCCCc1ccc(-c2cc3cn(C/C=C/C(O)CO)c(=O)nc3o2)cc1,>100 µM
Cc1cn([C@H]2C[C@H](N=[N+]=[N-])[C@@H](CO)O2)c(=O)[nH]c1=O,>10 µg/mL
CSCSc1nc(Cc2ccccc2)c(C(C)C)c(=O)[nH]1,>100 µM
Nc1cc(Cl)nc(SCc2ccccc2)n1,>10 µM
COC(=O)[C@H](C)NP(=O)(OC[C@H]1O[C@@H](N2C(=O)NC(=O)C(C)(Br)C2OC)C[C@@H]1N=[N+]=[N-])Oc1ccc(OC)cc1,>100 µM
CCOC(=O)[C@H](C)N[P@](=O)(OC[C@H]1O[C@@H](n2cnc3c(N)nc(N)nc32)[C@](C)(O)[C@@H]1O)Oc1ccccc1CCC(=O)OC(C)C,>100 µM
Cc1cn([C@H]2C[C@H](N=[N+]=[N-])[C@@H](COP(=O)(O)OC[C@H]3CC[C@@H](n4cnc5c(N)ncnc54)O3)O2)c(=O)[nH]c1=O,>100 µM
CCCCCCCCC#Cc1cn(CC=C(CO)CO)c(=O)[nH]c1=O,21.9 µM
C[C@H]1CC(=O)c2c(O)cccc2[C@H]1O,>125 µg/mL
Nc1nc2c(ncn2[C@H]2CO[C@@H](CO)O2)c(=O)[nH]1,>500 µM
COC(=O)C(C)CNP(=O)(OC[C@@H]1CC[C@H](n2cc(C)c(=O)[nH]c2=O)O1)Oc1ccc(Br)cc1,>100 µM
O=c1[nH]cnc2c1ncn2[C@@H]1C=C[C@H](CO)O1,60 µM
Cc1cc2c(C(C)C)c(O)c(O)c(C=NCCO)c2c(O)c1-c1c(C)cc2c(C(C)C)c(O)c(O)c(C=NCCO)c2c1O,>100 µM
CSC[C@H](NC(=O)COc1cccc2ccccc12)C(=O)N[C@@H](Cc1ccccc1)[C@H](O)C(=O)N1CSC(C)(C)[C@H]1C(=O)NC(C)(C)C,8 µM
CC(=O)c1ccc(C)cc1NC(C(N)=O)c1c(Cl)cccc1Cl,65 µM
[N-]=[N+]=N[C@H]1[C@@H](O)[C@H](n2ccc(N)nc2=O)O[C@@H]1CO,>100 µM
COC(=O)C(CO)N=Cc1c(O)c(O)c(C(C)C)c2cc(C)c(-c3c(C)cc4c(C(C)C)c(O)c(O)c(C=NC(CO)C(=O)OC)c4c3O)c(O)c12,35 µM
Cc1cn([C@H]2C[C@H](N=[N+]=[N-])[C@@H](CO)O2)c(=O)[nH]c1=O,>100 µM
CCCCCCCCc1cc2cn(C/C=C/C(O)CO)c(=O)nc2o1,9.8 µM
Cc1cc2c(C(C)C)c(O)c(O)cc2c(O)c1-c1c(C)cc2c(C(C)C)c(O)c(O)cc2c1O,>100 µM
Nc1ncnc2c1ncn2[C@@H]1C=C[C@H](CO)O1,59 µM
CC1=CC(=O)c2c(O)cccc2C1=O,>125 µg/mL
CCOC(=O)CCc1ccccc1OP(=O)(N[C@@H](C)C(=O)OCC)OC[C@H]1O[C@@H](n2cnc3c(N)nc(N)nc32)[C@](C)(O)[C@@H]1O,>100 µM
CC[C@H](C)[C@@H](C(=O)O)n1sc2ccccc2c1=O,>100 µM
CCCCN1C(=O)C(CC2CCCCC2)NC(=O)C12CCN(Cc1ccc3c(c1)OCCO3)CC2,51.8 µM
Cc1cn([C@H]2CC(N=[N+]=[N-])[C@@H](COP(=O)(OCCC#N)OC[C@H]3CC[C@@H](n4cnc5c(=O)[nH]cnc54)O3)O2)c(=O)[nH]c1=O,47 µM
Cc1cn([C@@H]2C[C@@H](O)[C@H](CO)O2)c(=O)[nH]c1=O,>200 µM
Nc1nc2c(ncn2[C@H]2CC[C@@H](CO)O2)c(=O)[nH]1,>100 µM
O=c1ccn(Cc2ccccc2)c(=O)n1Cc1ccccc1,179 µM
c1cc(CN2CCCNCCNCCCNCC2)ccc1CN1CCCNCCNCCCNCC1,>100 µM
Nc1ncnc2c1ncn2[C@@H]1C[C@@H](O)[C@H](CO)O1,>200 µM
Nc1ncnc2c1ncn2[C@@H]1O[C@@H](CO)C=C1F,>100 µM
Nc1ccn([C@H]2CC[C@@H](CO)C2)c(=O)n1,>100 µM
COC(=O)C(C)CNP(=O)(OC[C@@H]1CC[C@H](n2cc(C)c(=O)[nH]c2=O)O1)Oc1ccccc1,>100 µM
Cc1cc(C)cc(Cn2c(=O)ccn(CC#N)c2=O)c1,>464 µM
COC(=O)C(C)CNP(=O)(OC[C@@H]1CC[C@H](n2cc(C)c(=O)[nH]c2=O)O1)Oc1ccc(Cl)cc1,>100 µM
Nc1ccn([C@H]2CC[C@@H](CO)O2)c(=O)n1,35.5 µM
Cc1cn([C@H]2C[C@H](N=[N+]=[N-])[C@@H](COP(=O)(OCCC#N)OC[C@@H]3CC[C@H](n4cnc5c(N)ncnc54)O3)O2)c(=O)[nH]c1=O,>200 µM
CCCCCCCCCCCCCCCC(=O)OCC(CO)(CO)NC(=O)CNC(=O)CCCc1ccc(C(CCCl)CCCl)cc1,7.1 µM
CC(C)OC(=O)CCc1ccccc1O[P@](=O)(N[C@@H](C)C(=O)OC(C)C)OC[C@H]1O[C@@H](n2cnc3c(N)nc(N)nc32)[C@](C)(O)[C@@H]1O,>100 µM
[N-]=[N+]=NC1=C[C@H](n2cnc3c(=O)[nH]c(N)nc32)O[C@@H]1CO,28 µM
O=c1[nH]c(=O)n([C@H]2C[C@H](O)[C@@H](CO)O2)cc1C12B3B4B5B6B(B3B1B42)B1B5C61,>100 µM
Cc1cn([C@H]2C=C[C@@H](CO)O2)c(=O)[nH]c1=O,>10 µM
CC1=C(O)c2cccc(O)c2C(=O)C1=O,>125 µg/mL
CC(=O)c1cn(CC=C(CO)CO)c(=O)[nH]c1=O,>100 µM
Nc1nc(=O)n([C@@H]2C[Se][C@H](CO)O2)cc1F,>100 µM
CCOC(=O)CCc1ccccc1O[P@@](=O)(N[C@@H](C)C(=O)OCC)OC[C@H]1O[C@@H](n2cnc3c(N)nc(N)nc32)[C@](C)(O)[C@@H]1O,>100 µM
Cc1cc2c(C(C)C)c(O)c(O)c(C=Nc3ccc(C(=O)O)cc3)c2c(O)c1-c1c(C)cc2c(C(C)C)c(O)c(O)c(C=Nc3ccc(C(=O)O)cc3)c2c1O,>100 µM
COc1cc(Cn2c(=O)ccn(CC#N)c2=O)cc(OC)c1OC,>377 µM
Cc1cn([C@H]2C[C@H](N=[N+]=[N-])[C@@H](CO)O2)c(=O)[nH]c1=O,200 µM
CC(=O)Oc1c(OC(C)=O)c(C#N)c2c(OC(C)=O)c(-c3c(C)cc4c(C(C)C)c(OC(C)=O)c(OC(C)=O)c(C#N)c4c3OC(C)=O)c(C)cc2c1C(C)C,8.7 µM
CC1=C(C2=C(C)C(=O)c3cccc(O)c3C2=O)C(=O)c2c(O)cccc2C1=O,>125 µg/mL
Cc1cc2c(C(C)C)c(O)c(O)c(C=Nc3ccccc3)c2c(O)c1-c1c(C)cc2c(C(C)C)c(O)c(O)c(C=Nc3ccccc3)c2c1O,>100 µM
CCc1cn([C@H]2C=C[C@@H](CO)O2)c(=O)[nH]c1=O,>100 µM
CC(=O)c1cn(C/C=C/C(O)CO)c(=O)[nH]c1=O,>100 µM
[N-]=[N+]=NC1=C[C@H](n2ccc(N)nc2=O)O[C@@H]1CO,~100 µM
O=c1[nH]cnc2c1ncn2[C@H]1O[C@@H](CO)C=C1F,>100 µM
Nc1nc(N)c2ncn([C@H]3CO[C@@H](CO)O3)c2n1,>500 µM

The last 10 rows once more:

compound | value
COc1cc(Cn2c(=O)ccn(CC#N)c2=O)cc(OC)c1OC | >377 µM
Cc1cn([C@H]2C[C@H](N=[N+]=[N-])[C@@H](CO)O2)c(=O)[nH]c1=O | 200 µM
CC(=O)Oc1c(OC(C)=O)c(C#N)c2c(OC(C)=O)c(-c3c(C)cc4c(C(C)C)c(OC(C)=O)c(OC(C)=O)c(C#N)c4c3OC(C)=O)c(C)cc2c1C(C)C | 8.7 µM
CC1=C(C2=C(C)C(=O)c3cccc(O)c3C2=O)C(=O)c2c(O)cccc2C1=O | >125 µg/mL
Cc1cc2c(C(C)C)c(O)c(O)c(C=Nc3ccccc3)c2c(O)c1-c1c(C)cc2c(C(C)C)c(O)c(O)c(C=Nc3ccccc3)c2c1O | >100 µM
CCc1cn([C@H]2C=C[C@@H](CO)O2)c(=O)[nH]c1=O | >100 µM
CC(=O)c1cn(C/C=C/C(O)CO)c(=O)[nH]c1=O | >100 µM
[N-]=[N+]=NC1=C[C@H](n2ccc(N)nc2=O)O[C@@H]1CO | ~100 µM
O=c1[nH]cnc2c1ncn2[C@H]1O[C@@H](CO)C=C1F | >100 µM
Nc1nc(N)c2ncn([C@H]3CO[C@@H](CO)O3)c2n1 | >500 µM